Molecular target: T1, melibiose permease MelBSt (D59C uniporter mutant) (Salmonella enterica, UniProt P30878, D59C)
T1 construct: gene melB; D59C MelBSt/CHis10; modeled from positions 2–453 or 455
Experiment: X-ray crystal structure, […] Å ([…] Å in Methods); ITC also run
Format: binding

Protein sequences, listed by entry. Tags and fused reporters are not part of them.
UniProt P30878, whole entry D59C: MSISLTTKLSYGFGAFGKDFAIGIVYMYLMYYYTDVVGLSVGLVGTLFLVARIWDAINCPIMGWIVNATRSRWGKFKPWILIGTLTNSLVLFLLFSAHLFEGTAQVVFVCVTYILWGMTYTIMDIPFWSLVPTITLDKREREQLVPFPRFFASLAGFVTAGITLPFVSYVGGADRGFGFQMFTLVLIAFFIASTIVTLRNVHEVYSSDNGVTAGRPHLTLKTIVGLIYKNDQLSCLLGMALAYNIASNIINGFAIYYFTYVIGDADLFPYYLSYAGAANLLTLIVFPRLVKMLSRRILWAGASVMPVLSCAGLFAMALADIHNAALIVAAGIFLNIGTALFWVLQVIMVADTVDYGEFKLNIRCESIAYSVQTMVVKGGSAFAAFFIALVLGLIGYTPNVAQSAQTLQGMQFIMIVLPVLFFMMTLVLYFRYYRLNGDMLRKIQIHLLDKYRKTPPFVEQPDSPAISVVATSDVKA

For `OC[C@H]1O[C@H](OC[C@H]2O[C@H](O[C@]3(CO)O[C@H](CO)[C@@H](O)[C@@H]3O)[C@H](O)[C@@H](O)[C@@H]2O)[C@H](O)[C@@H](O)[C@H]1O` [raffinose, Raffinose], the “X-ray crystal structure, 3.40 Å (3.45 Å in Methods); ITC also run” value was “density map displayed a clear three-unit blob in the binding pocket, fitting well with this trisaccharide”.
